# Assay results from ChEMBL document CHEMBL2434925, “Synthesis and antiviral activity of a novel class of (5-oxazolyl)phenyl amines” (Eur J Med Chem, 2013).
# Experiment: Selectivity index, ratio of CC50 for african green monkey Vero cells to IC50 for Coxsackie B3 virus Schmitt
structure (smiles),measurement,value
NC(=O)c1ncn([C@@H]2O[C@H](CO)[C@@H](O)[C@H]2O)n1 [RIBAVIRIN],Ratio CC50/IC50,9
